Construct, isoform or probe ends are uncertain for at least one entry.
Target: poly-SUMOylated SARS2-NP WT (SARS-CoV-2) (UniProt P0DTC9)
Test: MST
Conditions: MST: PBS with 0.05% Tween, room temperature, recombinant protein, protein details: Flag, poly-His-SUMO3 conjugated

With “CACUCGCUAUGUCGAUAACAACUUCUGUGGCCCUGAUGGCUACCCUCUUGAGUGCAUUAAAGA [Cy5-RNA (SARS-CoV-2 RNA)]” the Kd was 0.59 nM and the binding result was “binds”.
